This note sets out measurements from PubChem BioAssay AID2184 (The Scripps Research Institute Molecular Screening Center, 2009).

This is a selection; strong and weak results do not stand in their true shares. Active and inactive are the calls of the source. No stated cut-off is given here; in the data, active means inhibition above about 0.66%; inactive means the rest.

For this assay, the target named is Beta-lactamase TEM (Escherichia coli) (UniProt P62593). The assay is described as follows: TEM-1 inhibition (serine beta-lactamase), epi-absorbance biochemical counter-screen, VIM-2/IMP-1 inhibitor project (AID 2184). The settings on record: TEM-1 beta-lactamase, nitrocefin absorbance inhibition; at 5.6 µM; hits give high values.

As usually defined, the inhibition is the share of the control response that was lost under treatment. In the case of `Nc1cccc2c([As](=O)(O)O)cccc12`, the inhibition is active: 1.03%.
